Experimental data: PubChem BioAssay AID1259414 (Drosophila RNAi Screening Center, 2018)
Aim: 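Fly genes that alter Wolbachia amount inside host cells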 (primary screen). System: Drosophila JW18 cells infected with Wolbachia. Reagents: long dsRNA against Drosophila genes, 0.25 µg dsRNA per well of a 384-well plate. Timing: 5 days. Conditions: cells persistently infected with Wolbachia before knock-down; no added drug. Measurement: 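Automated imaging of bacterial rRNA staining divided by host cell count, reported as plate-normalised robust z-score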. Direction: Wolbachia per cell robust z: higher = more Wolbachia per host cell than the plate typical. Rule for the call: 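Hit when robust z is 1.5 or more, or -1.5 or less, in at least two of three replicates; excludes dsRNAs with several or no targets, genes not expressed in JW18 and well A1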.
In all, the deposit lists about 24,000 reagents; this is an unselected part of those with a known target gene and a result. Over the whole deposit, about 1,210 (5%) were called active. 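Inactive calls also include excluded dsRNAs with several or no targets, genes unexpressed in JW18, and well A1, regardless of score.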 Reagents against one gene are numbered here. Names joined by + are all predicted targets of the reagent. No sequences are given here.

CG13077 → Wolbachia per cell robust z, rep 1: 0.275; Wolbachia per cell robust z, rep 2: 0.25; Wolbachia per cell robust z, rep 3: 0.724; Call: inactive
cana + CG33695 #1 → Wolbachia per cell robust z, rep 1: -0.976; Wolbachia per cell robust z, rep 2: -1.21; Wolbachia per cell robust z, rep 3: -1.21; Call: inactive
cana + CG33695 #2 → Wolbachia per cell robust z, rep 1: 1.1; Wolbachia per cell robust z, rep 2: -1.22; Wolbachia per cell robust z, rep 3: 0.247; Call: inactive
CG13367 #1 → Wolbachia per cell robust z, rep 1: 0.0867; Wolbachia per cell robust z, rep 2: 0.248; Wolbachia per cell robust z, rep 3: -2.05; Call: inactive
CG13367 #2 → Wolbachia per cell robust z, rep 1: 0.95; Wolbachia per cell robust z, rep 2: 1.52; Wolbachia per cell robust z, rep 3: 0.864; Call: inactive
CG33477 → Wolbachia per cell robust z, rep 1: 0.809; Wolbachia per cell robust z, rep 2: -0.352; Wolbachia per cell robust z, rep 3: 0.886; Call: inactive
Nup62 → Wolbachia per cell robust z, rep 1: 0.737; Wolbachia per cell robust z, rep 2: -0.855; Wolbachia per cell robust z, rep 3: 1.54; Call: inactive
hdly → Wolbachia per cell robust z, rep 1: 0.982; Wolbachia per cell robust z, rep 2: -0.606; Wolbachia per cell robust z, rep 3: 0.616; Call: inactive

Sorted by “Wolbachia per cell robust z, rep 1” (high to low): 2 of the entries above
CG13367 #2 → Wolbachia per cell robust z, rep 1: 0.95; Wolbachia per cell robust z, rep 2: 1.52; Wolbachia per cell robust z, rep 3: 0.864; Call: inactive
CG33477 → Wolbachia per cell robust z, rep 1: 0.809; Wolbachia per cell robust z, rep 2: -0.352; Wolbachia per cell robust z, rep 3: 0.886; Call: inactive

The list goes on:
CG12896 + Prx6c + Prx6b → Wolbachia per cell robust z, rep 1: -1.57; Wolbachia per cell robust z, rep 2: -0.699; Wolbachia per cell robust z, rep 3: -0.138; Call: inactive
CG33644 → Wolbachia per cell robust z, rep 1: -0.654; Wolbachia per cell robust z, rep 2: 0.443; Wolbachia per cell robust z, rep 3: 0.385; Call: inactive
UQCR-11 → Wolbachia per cell robust z, rep 1: -0.726; Wolbachia per cell robust z, rep 2: 0.656; Wolbachia per cell robust z, rep 3: -1.71; Call: inactive
CG1407 → Wolbachia per cell robust z, rep 1: -0.209; Wolbachia per cell robust z, rep 2: -6.57; Wolbachia per cell robust z, rep 3: 0.219; Call: inactive
Saf-B #1 → Wolbachia per cell robust z, rep 1: -0.837; Wolbachia per cell robust z, rep 2: 0.126; Wolbachia per cell robust z, rep 3: -0.436; Call: inactive
Saf-B #2 → Wolbachia per cell robust z, rep 1: -2.4; Wolbachia per cell robust z, rep 2: -2.53; Wolbachia per cell robust z, rep 3: -5.48; Call: active
CG8861 #1 → Wolbachia per cell robust z, rep 1: -0.195; Wolbachia per cell robust z, rep 2: -0.248; Wolbachia per cell robust z, rep 3: -0.488; Call: inactive
CG8861 #2 → Wolbachia per cell robust z, rep 1: -0.545; Wolbachia per cell robust z, rep 2: 1.79; Wolbachia per cell robust z, rep 3: -4.03; Call: inactive
Pcl #1 → Wolbachia per cell robust z, rep 1: -0.387; Wolbachia per cell robust z, rep 2: -1.62; Wolbachia per cell robust z, rep 3: -2.05; Call: active
Pcl #2 → Wolbachia per cell robust z, rep 1: 0.835; Wolbachia per cell robust z, rep 2: 0.565; Wolbachia per cell robust z, rep 3: 0.536; Call: inactive
TBC1D16 → Wolbachia per cell robust z, rep 1: -1.6; Wolbachia per cell robust z, rep 2: 0.0757; Wolbachia per cell robust z, rep 3: -1.46; Call: inactive
TfIIEbeta → Wolbachia per cell robust z, rep 1: -0.339; Wolbachia per cell robust z, rep 2: -0.183; Wolbachia per cell robust z, rep 3: -0.478; Call: inactive
CG11902 #1 → Wolbachia per cell robust z, rep 1: 0.442; Wolbachia per cell robust z, rep 2: 0.986; Wolbachia per cell robust z, rep 3: 0.205; Call: inactive
CG11902 #2 → Wolbachia per cell robust z, rep 1: 0.928; Wolbachia per cell robust z, rep 2: 0.557; Wolbachia per cell robust z, rep 3: 1.2; Call: inactive
Gos28 #1 → Wolbachia per cell robust z, rep 1: -3.41; Wolbachia per cell robust z, rep 2: 1.16; Wolbachia per cell robust z, rep 3: -4.02; Call: active
Gos28 #2 → Wolbachia per cell robust z, rep 1: 0.321; Wolbachia per cell robust z, rep 2: -2.46; Wolbachia per cell robust z, rep 3: -1.49; Call: inactive
